In US11142584, “CD20-binding proteins comprising Shiga toxin A subunit effector regions for inducing cellular internalization and methods using same” (dated 2021) one finds Kd data, which are given here for 2 substances.

The target of test [1] is CD20 (B-lymphocyte antigen CD20) on human lymphoma cells, human (UniProt P11836).
Test [2] shares this target. The experiment in a line: flow cytometry on Raji (CD20+) cells, multiple experiments.

Several values for one entry are separate records, joined by “and”; a condition that tells them apart may be missing. Equal entries are not always repeated. Where two headings read alike, the source gives them in different places.

The term Kd denotes the free concentration of one partner at which half of the binding sites on the other are occupied at equilibrium, for simple one-to-one binding. The low end stands for a tighter complex, the high end for a looser complex. In test [1], αCD20scFv1::SLT-1A version 2 gave a Kd of 101 nM.
As to αCD20scFv1::SLT-1A version 1, the dissociation constant Kd in test [1] was 82.5 nM; in test [2], 80 nM and 100 nM.
